The test system of one data set is HBV. The data set is described as follows: HBV extracellular virion antiviral assay in 2.2.15 cells. Format: cell-based, Hepatitis B Virus. Conditions: CC50/EC90 for HBV assays. Here is the method: HBV antiviral assays were conducted as previous described [Korba and Gerin, Antiviral Res. 19:55 (1992 Confluent cultures of 2.2.15 cells were maintained on 96-well flat-bottomed tissue culture plates (confluence in this culture system is required for active, high levels of HBV replication equivalent to that observed in chronically-infected individuals [Sells et al. J. Virol. 62, 2836-2844 (1988); Korba and Gerin (1992)]. Cultures were treated with nine consecutive daily doses of the test compounds. HBV DNA levels were assessed by quantitative blot hybridization 24 hr. after the last treatment. Cytotoxicity was assessed by uptake of neutral red dye 24 hr. following the last treatment.
EC50, EC90 and CC50 values (±standard deviations [S.D.]) were calculated by linear regression analysis using data combined from all treated cultures (Korba and Gerin, 1992; Okuse et al., 2005). […] CC50 is the drug concentration at which a 2-fold lower level of neutral red dye uptake (relative to the average levels in untreated cultures) was observed. Selectivity index (S.I.) was calculated as CC50/EC90 for HBV assays and CC50/EC50 for HCV assays. EC90 values were used for calculation of the S.I. in HBV assays since at least a 3-fold depression of HBV DNA levels is typically required to achieve statistical significance in this assay system (Korba and Gerin, 1992). For combination treatments, EC50, EC90, CC50 and S.I. are presented for the first compound listed. The molar ratio of the compounds in each combination is also indicated.

The subject of data set [1] is HCV replicon cell line, AVAS (sub-genomic CONI, genotype 1b). The data set is described as follows: Primary HCV replicon cell assay, genotype 1B. Format: cell-based, Hepatitis C Virus. The following applies: CC50/EC50 for HCV assays. Here is the method:
Antiviral activity of test compounds was assessed in a 3-day assay using the stably-expressing HCV replicon cell line, AVAS (sub-genomic CONI, genotype 1b) [Blight et al., Science 290, 1972-1974 (2000)] maintained as sub-confluent cultures on 96-well plates as previously described (Okuse et al., Antiviral Research 65, 23-34 (2005)]. Antiviral activity was determined by blot hybridization analysis of intracellular HCV RNA (normalized to the level of cellular B-actin RNA in each culture sample) and cytotoxicity was assessed by neutral red dye uptake after 3 days of treatment. Additional studies were performed using Huh7 cells containing another HCV replicon, H/FL-Neo, a genotype 1a full length construct [Blight et al., J. Virol. 77, 3181-3190 (2003)]. For studies involving human serum, standard culture medium (which contains 10% fetal bovine serum) and assay conditions were maintained.
EC50, EC90 and CC50 values (±standard deviations [S.D.]) were calculated by linear regression analysis using data combined from all treated cultures (Korba and Gerin, 1992; Okuse et al., 2005). EC50 and EC90 are drug concentrations at which a 2-fold, or a 10-fold depression of intracellular HBV DNA or HCV RNA (relative to the average levels in untreated cultures), respectively, was observed. CC50 is the drug concentration at which a 2-fold lower level of neutral red dye uptake (relative to the average levels in untreated cultures) was observed. Selectivity index (S.I.) was calculated as CC50/EC90 for HBV assays and CC50/EC50 for HCV assays. EC90 values were used for calculation of the S.I. in HBV assays since at least a 3-fold depression of HBV DNA levels is typically required to achieve statistical significance in this assay system (Korba and Gerin, 1992). For combination treatments, EC50, EC90, CC50 and S.I. are presented for the first compound listed. The molar ratio of the compounds in each combination is also indicated.
For orientation: In antiviral work, replicon cells carry a viral genome segment that copies itself.

Structures are written as SMILES. Some results are limits rather than exact numbers.

As for `CC(=O)Oc1ccccc1C(=O)Nc1ncc(C(F)(F)F)s1` [Compound 1], in the data set on HBV, the “SI (VIR)” value is over 11. Also, in data set [1], the SI is recorded as 0.9. As to `O=C(Nc1ncc(C(F)(F)F)s1)c1ccccc1O` [Compound 2], the “SI (VIR)” value in the data set with HBV is over 11. Also, the SI in data set [1] stood at 58.0. For `CC(=O)Oc1ccccc1C(=O)Nc1nnc(C(F)(F)F)s1` [Compound 5], in data set [1], the SI is given as 15.0. As to `O=C(Nc1nnc(C(F)(F)F)s1)c1ccccc1O` [Compound 6], the SI in data set [1] is 1.4. Turning to `CC(=O)Oc1ccccc1C(=O)Nc1ncc([N+](=O)[O-])s1` [Nitazoxanide, reference compound], the “SI (VIR)” value in the data set with HBV is over 121. Besides, the SI in data set [1] is given as 169.0. For the compound `O=C(Nc1ncc([N+](=O)[O-])s1)c1ccccc1O` [Tizoxanide, reference compound], the “SI (VIR)” value with HBV was over 172. Also, in data set [1], the SI was determined as 100.0.

Values taken from patent USRE47786E1, “Haloalkyl heteroaryl benzamide compounds” (Romark Laboratories, L.C., priority 2009, dated 2019).
